The source of these data is patent US11542257B2, “Arylnaphthalene compounds as vacuolar-ATPase inhibitors and the use thereof” (priority 2018, dated 2023).

One data set concerns Ebolavirus (EBOV). Format: cell-based.
The next data set deals with Marburg virus (MARV). The data set is classed as cell-based.

For the molecule `CCOc1c2c(c(-c3ccc4c(c3)OCO4)c3cc(OC)c(OC)cc13)C(=O)OC2` [Compound 2c, 9-(benzo[d][1,3]dioxol-5-yl)-4-ethoxy-6,7-dimethoxynaphtho[2,3-c]furan-1(3H)-one], the “fold improvement in potency compared to diphyllin (EBOV infection)” value in the data set on Ebolavirus (EBOV) is 10 fold.

Consider `COc1cc2c(OCCCN3CCOCC3)c3c(c(-c4ccc5c(c4)OCO5)c2cc1OC)C(=O)OC3` [Compound 2g, 9-(benzo[d][1,3]dioxol-5-yl)-6,7-dimethoxy-4-(3-morpholinopropoxy)naphtho[2,3-c]furan-1(3H)-one], for which the “fold decrease in potency against MARV compared to EBOV infection” value with Marburg virus (MARV) stood at 2 fold.
